Measured values reported in BindingDB's records for doi:10.1021/acs.biochem.5b00244 (University of Kentucky, 2015).

Biological target: T1, Acetyltransferase, GNAT family (Bacillus anthracis, UniProt A0A3P1UAV8)
T1 sequence (A0A3P1UAV8 whole entry): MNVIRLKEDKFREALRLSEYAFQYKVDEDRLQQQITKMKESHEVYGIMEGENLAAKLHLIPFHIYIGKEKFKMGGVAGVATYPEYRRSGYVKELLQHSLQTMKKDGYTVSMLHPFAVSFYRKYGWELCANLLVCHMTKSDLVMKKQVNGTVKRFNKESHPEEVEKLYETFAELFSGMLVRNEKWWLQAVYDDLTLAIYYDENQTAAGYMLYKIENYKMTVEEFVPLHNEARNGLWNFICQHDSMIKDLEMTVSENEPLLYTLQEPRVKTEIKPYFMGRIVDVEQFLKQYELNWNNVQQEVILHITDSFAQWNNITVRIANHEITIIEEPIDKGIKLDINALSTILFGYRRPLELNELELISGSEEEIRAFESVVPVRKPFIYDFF
Conditions: pH 8

[H]/N=C(\N/C(=N/[H])NCCCCCCNC(=N)NC(=N)Nc1ccc(Cl)cc1)Nc1ccc(Cl)cc1 [Chlorhexidine (1)]
IC50: 14 µM
